Anti-infective test results gathered from many reports (values: NIAID ChemDB through PubChem).

Shared fields: growth or infection tests; agent: Mycobacterium tuberculosis

Rows are shuffled and stem from different studies.

compound	cell line	method	tested at	strain	mutations	endpoint	value
O=C1c2cscc2C(=O)c2cscc21	VERO	resazurin		H37Rv		MIC	0.78 µg/mL
CCCCNC(=O)c1cc([N+](=O)[O-])cc([N+](=O)[O-])c1		visual reading		H37Rv		MIC	0.5 µg/mL
C[C@H]1COC2(CCN(S(=O)(=O)c3cc(-[n+]4ccc(O)cc4)cc(C(F)(F)F)c3)CC2)O1		resazurin		H37Rv		MIC	>64 µM
O=[N+]([O-])c1ccc(/C=N/NC(=S)N2CCOCC2)o1						MIC	100 µg/mL
N[C@@H]1CN(c2c(F)cc3c(=O)c(C(=O)O)cn([C@@H]4C[C@@H]4F)c3c2Cl)CC12CC2						MIC	>0.03 µg/mL
Clc1ccc(C2=NN(Oc3ccccc3)C(c3ccc(Cl)cc3Cl)C2n2ccnc2)c(Cl)c1				H37Rv		MIC	4 µg/mL
CCOC(=O)/C(C#N)=N/Nc1ccc(C(=O)OCC)c(S(=O)(=O)NC(=O)Nc2nccc(OC)n2)c1				H37Rv		MIC	>80 µg/mL
CSCCC(NS(=O)(=O)Cc1ccccc1)C(=O)NNc1ccccc1		BACTEC		H37Rv		MIC bound	>12.5 µg/mL
CCn1cc(C(=O)O)c(=O)c2cc(F)c(N3CCN(CC(=O)c4ccc(F)cc4)CC3)nc21				H37Rv		MIC	>6.25 µg/mL
COc1cc(-c2oc3c(OC)c(OC)cc(O)c3c(=O)c2OC)ccc1O		BACTEC	12.5 µg/mL	H37Rv		inhibition	0%
O=C(O)c1cccc2oc3ccccc3c(=O)c12			16 µg/mL	H37Rv		inhibition	inactive
CC1NOC(NS(=O)(=O)c2ccc(N=Nc3cc4ccccc4c(C(=O)O)c3O)cc2)C1C		BACTEC	12.5 µg/mL	H37Rv		inhibition	-7%
COc1ccc(N2CCN(c3nc4c(s3)c3c(O)c5c(O)c(C)c6c(c54)C(=O)[C@@](C)(O/C=C/[C@H](OC)[C@@H](C)[C@@H](OC(C)=O)[C@H](C)[C@H](O)[C@H](C)[C@@H](O)[C@@H](C)/C=C/C=C(/C)C(=O)N3)O6)CC2)cc1				H37Rv		MIC	0.15 µg/mL
C[C@H]1CN(c2nc3sc(C(=O)N[C@H]4C[C@@H]4C)cc3s2)[C@@H](C)CO1		visual reading		H37Rv		MIC	2.25 µM
O=CN/N=C\c1cc(C2C3CC4CC(C3)CC2C4)nc2ccccc12		BACTEC	6.25 µg/mL	H37Rv		inhibition	98%
O=c1c2cc(O)c(O)cc2oc2cc(O)cc(O)c12						MIC	40 µg/mL
O=C1OC2(CCCC2)OC(=O)C1=C/C=C/c1ccc([N+](=O)[O-])o1		BACTEC		H37Rv		MIC bound	>12.5 µg/mL
O=C(O)C(=NNc1ccc(C(=O)N/N=C/c2ccc([N+](=O)[O-])o2)cc1)C(=O)O				H37Rv		EC50	>6.25 µg/mL
C(=N/Nc1ccccc1)/c1cc(C2C3CC4CC(C3)CC2C4)nc2ccccc12		BACTEC	6.25 µg/mL	H37Rv		inhibition	0%
COc1ccc(-n2[nH]c(C)c(N=Nc3ccc(-c4n[nH]c(=S)n4C)cc3)c2=O)cc1				H37Rv		EC50	>6.25 µg/mL
O=C(Nc1ncc([N+](=O)[O-])s1)c1cccc([N+](=O)[O-])c1		resazurin	6.25 µg/mL	H37Rv		inhibition	96%
Fc1ccc(N/N=C\c2cc(C3CCCCC3)nc3ccccc23)cc1		BACTEC	6.25 µg/mL	H37Rv		inhibition	0%
COc1ccc(-n2[nH]c(C)c(N=Nc3ccc(-c4n[nH]c(=S)o4)cc3)c2=O)cc1			6.25 µg/mL	H37Rv		inhibition	2%
CCCCc1cc(C(=O)NN)c2ccccc2n1		BACTEC		H37Rv		MIC	≥12.5 µg/mL
CN1CCN(C(=S)N/N=C/c2ccc([N+](=O)[O-])o2)CC1						MIC	100 µg/mL
Cc1ccnc(NC(=O)NS(=O)(=O)c2cc(C(N)=O)ccc2Br)n1				H37Rv		MIC	>80 µg/mL
O=C(N/N=C/c1ccc([N+](=O)[O-])o1)N1CCOCC1						MIC	10 µg/mL
CCn1cc(C(=O)O)c(=O)c2cc(F)c(N3CCN(CC(=O)c4ccccc4)CC3)nc21			6.25 µg/mL	H37Rv		inhibition	52%
C=C1C(=O)O[C@H]2C[C@@]3(C)[C@H](O)CCC(=C)[C@@H]3[C@@H](OC(C)=O)[C@H]12		resazurin		H37Rv		MIC bound	>6.25 µg/mL
Cc1ccnc(NC(=O)NS(=O)(=O)c2cc(C(=O)OC(C)C)ccc2Br)n1				H37Rv		MIC	10 µg/mL
O=C(O)CCC(=O)NCCCCOCc1cn(C2CCC(O)C(CO)O2)c(=O)[nH]c1=O		fluorescence		H37Rv		MIC	50 µg/mL
CC1=NN(C(=O)CC(=O)Nc2ccccc2)C(=O)C1N=Nc1ccc(C(=O)O)cc1		resazurin	6.25 µg/mL	H37Rv		inhibition	-12%
C[C@H]1C[C@@H]1NC(=O)c1cc2sc(N3CCOC(C)(C)C3)nc2s1		visual reading		H37Rv		MIC	3.44 µM
c1cc2c(s1)CCOC21CCN(Cc2ccc3c(c2)OCCO3)CC1		fluorescence		H37Rv	MmpL3: Phe255Leu	fold resistance	≥33.3
CC1(C)CCC[C@]2(C)[C@H]3C=C4C=C(O)C(=O)C=C4O[C@@]3(C)CC[C@@H]12				EMB-R		MIC	12.5 µg/mL
COc1cc(O)cc2oc3c(O)cccc3c(=O)c12						MIC	>200 µg/mL
Fc1ccccc1N/N=C/c1ccnc2ccccc12		BACTEC	6.25 µg/mL	H37Rv		inhibition	0%
COc1cc2c(=O)c3c(O)cc(O)cc3oc2c(OC)c1O						MIC	5 µg/mL
Cc1ccn2c(C(=O)OCc3ccccc3)c(C)nc2c1		broth dilution		MDR-TB	Resistant to HREKP	MIC90	<0.01 µg/mL
CCOC(=O)c1cc(C(=O)c2ccc(Br)cc2)n2c1ccc1cc(C)ccc12		resazurin		H37Ra		MIC	32 µg/mL
Fc1ccc(ON2N=C(c3ccc(Br)cc3)C(n3ccnc3)C2c2ccc(Br)cc2)cc1				H37Rv		MIC	4 µg/mL
Fc1cccc(N/N=C\c2cc(C3C4CC5CC(C4)CC3C5)nc3ccccc23)c1		BACTEC	6.25 µg/mL	H37Rv		inhibition	94%
O=C1/C(=C/c2cccc(Br)c2)CSC/C1=C/c1cccc(Br)c1		BACTEC	12.5 µg/mL	H37Rv		inhibition	87%
c1ccc(-c2ncnc3c2ncn3C2CCOCC2)cc1				H37Rv		EC50	>6.25 µg/mL
NNC(=O)c1ccncc1				H37RV #301		MIC	<0.5 µg/mL
Cc1c([N+](=O)[O-])cc2c(=O)c3cc([N+](=O)[O-])ccc3oc2c1C			4 µg/mL	H37Rv		inhibition	inactive
CCN1C(=O)CS/C1=N\NC(=O)Cc1csc2nc(-c3ccc(Br)cc3)cn12			6.25 µg/mL	H37Rv		inhibition	0%
COc1ccccc1-c1coc2c(ccc3oc(C(C)C)cc32)c1=O		BACTEC	12.5 µg/mL	H37Rv		inhibition	-11%
CC1COc2c(C3(N)CC3)c(F)cc3c(=O)c(C(=O)O)cn1c23				25 strains		MIC50	1.56 µg/mL
CCN(CC)CCNc1ccc(N)c2sc3ccccc3c(=O)c12		BACTEC		H37Rv		MIC bound	>12.5 µg/mL
O=C(Cc1csc2nc(-c3ccc(Br)cc3)cn12)N/N=C1\SCC(=O)N1c1ccc(Br)cc1				H37Rv		MIC	>6.25 µg/mL
COC(=O)c1cccc2oc3ccccc3c(=O)c12			32 µg/mL	H37Rv		inhibition	inactive
Cc1c(N)nc([C@H](CC(N)=O)NC[C@@H](N)C(N)=O)nc1C(=O)N[C@H](C(=O)NC(C)C(O)CC(=O)NC(C(=O)NC(OC1OC(C)C(N)C(O)C1O)C(O)c1nc(-c2nc(C(=O)NCCCCN)cs2)cs1)[C@H](C)O)C(OC1OC(CO)C(O)C(O)C1OC1OC(CO)C(O)C(OC(N)=O)C1O)c1cnc[nH]1.Cl.Cl.Cl.Cl				ETA-R		MIC	0.1 µg/mL
CC[C@@H](CO)NCCN[C@@H](CC)CO		agar		H37Rv	Extensively drug-resistant	MIC	30.37 µM
CC(C)CC1NC(=O)CCC(NC(=O)C(Cc2ccc(O)cc2)NC(=O)OCc2ccccc2)C(=O)NC(Cc2ccccc2)C(=O)NC(Cc2ccccc2)NC1=O		resazurin		H37Rv		MIC bound	>6.25 µg/mL
Cc1ccc(NC(=O)c2cc3sc(N4CCN(C5COC5)[C@H](C)C4)nc3s2)nc1		visual reading		H37Rv		MIC	2.75 µM
CCNC(=O)c1ccc(Br)c(S(=O)(=O)NC(=O)Nc2nccc(OC)n2)c1				H37Rv		MIC	>80 µg/mL
CCCCCCOC(=O)c1ccccc1		visual reading		H37Rv		MBC	>512 µg/mL
O=C(O)c1c([N+](=O)[O-])ccc2oc3ccc([N+](=O)[O-])cc3c(=O)c12			16 µg/mL	H37Rv		inhibition	inactive
O=C(NC1CCC1)c1cc2sc(C3CC3)nc2s1		visual reading		H37Rv		MIC	2.72 µM
COc1cc(OC)c2c(=O)c3cc(OC)c(OC)cc3oc2c1						MIC	100 µg/mL
Cc1[nH]n(-c2ccc([N+](=O)[O-])cc2)c(=O)c1N=Nc1ccc(-c2n[nH]c(=S)n2C)cc1			6.25 µg/mL	H37Rv		inhibition	1%
C[C@@H]1CN(c2nc3sc(C(=O)N[C@H]4C[C@@H]4C)cc3s2)CCN1C(=O)C1CC1		visual reading		H37Rv		MIC	2.85 µM
NC(=O)c1cccc2oc3ccccc3c(=O)c12			32 µg/mL	H37Rv		inhibition	inactive
O=C1N/C(=C/c2ccccc2)OC1=O		BACTEC		H37Rv		MIC bound	>12.5 µg/mL
O=C(O)c1c([N+](=O)[O-])cc2c(=O)c3cc([N+](=O)[O-])ccc3oc2c1C(=O)O			32 µg/mL	H37Rv		inhibition	inactive
O=C(Cc1csc2nc(-c3ccc(Br)cc3)cn12)NNC(=S)Nc1ccc([N+](=O)[O-])cc1			6.25 µg/mL	H37Rv		inhibition	0%
C[C@H]1C[C@@H]1NC(=O)c1cc2sc(OC3CC4(COC4)C3)nc2s1		visual reading		H37Rv		MIC	0.77 µM
c1csc(-c2ncnc3nc[nH]c23)c1				H37Rv		EC50	>6.25 µg/mL
O=C(Cc1csc2nc(-c3ccc(Br)cc3)cn12)NNC(=S)Nc1ccc(Br)cc1				H37Rv		MIC	>6.25 µg/mL
CCCCN1CN(NC(=O)c2ccncc2)CSC1=S						MIC	25 µg/mL
C(=N\Nc1ccccc1)/c1ccc2ccccc2n1		BACTEC	6.25 µg/mL	H37Rv		inhibition	3%
CCn1cc(C(=O)O)c(=O)c2cc(F)c(N3CCN(C/C(=N/O)c4ccc(F)cc4)CC3)cc21				H37Rv		EC50	>6.25 µg/mL
O=C1OCC/C1=N\O		BACTEC	12.5 µg/mL	H37Rv		inhibition	2%
c1coc(-c2ncnc3nc[nH]c23)c1				H37Rv		EC50	>6.25 µg/mL
CC1CC(NC(=O)c2cc3sc(N4CCN(C5COC5)[C@H](C)C4)nc3s2)C1		visual reading		H37Rv		MIC	1.41 µM
COc1cc(O)c2c(=O)c3cc(OC)c(O)c(O)c3oc2c1						MIC	10 µg/mL
COC(=O)c1cccc2oc3ccc([N+](=O)[O-])cc3c(=O)c12			32 µg/mL	H37Rv		inhibition	inactive
NC1CSc2ccccc2NC1=O		BACTEC		H37Rv		MIC bound	>12.5 µg/mL
COC(=O)c1ccc(Br)c(S(=O)(=O)NC(=O)Nc2nccc(OC)n2)c1				H37Rv		MIC	>80 µg/mL
Fc1cccc(N/N=C/c2ccc3ccccc3n2)c1		BACTEC	6.25 µg/mL	H37Rv		inhibition	97%
NCCNC(=S)S		BACTEC		H37Rv		MIC bound	≤128 µg/mL
COC(=O)c1ccc2oc3c(C(=O)OC)cccc3c(=O)c2c1			16 µg/mL	H37Rv		inhibition	inactive
COc1cc(O)c2c(=O)c3c(O)ccc(O)c3oc2c1						MIC	200 µg/mL
O=C(N/N=C/c1ccc([N+](=O)[O-])o1)N1CCCCC1						MIC	100 µg/mL
C[C@H]1C[C@@H]1NC(=O)c1cc2sc(OC3CC(N4CCOCC4)C3)nc2s1		visual reading		H37Rv		MIC	0.98 µM
Cc1nc(C(N)=O)c(N)n1CCN1CCN(C(=O)CCCCCCCCCCNC2N=CNc3nc[nH]c32)CC1		BACTEC		H37Rv		MIC bound	>12.5 µg/mL
CN[C@@H]1[C@H](O[C@H]2[C@H](O[C@H]3[C@H](O)[C@@H](O)[C@H](N=C(N)N)[C@@H](O)[C@@H]3N=C(N)N)O[C@@H](C)[C@]2(O)C=O)O[C@@H](CO)[C@H](O)[C@H]1O				Ravenel #226		MIC	4 µg/mL

A second listing of 7 rows from above:

compound	cell line	method	tested at	strain	mutations	endpoint	value
O=C(Nc1ncc([N+](=O)[O-])s1)c1cccc([N+](=O)[O-])c1		resazurin	6.25 µg/mL	H37Rv		inhibition	96%
CCCCc1cc(C(=O)NN)c2ccccc2n1		BACTEC		H37Rv		MIC	≥12.5 µg/mL
COC(=O)c1ccc(Br)c(S(=O)(=O)NC(=O)Nc2nccc(OC)n2)c1				H37Rv		MIC	>80 µg/mL
CCn1cc(C(=O)O)c(=O)c2cc(F)c(N3CCN(C/C(=N/O)c4ccc(F)cc4)CC3)cc21				H37Rv		EC50	>6.25 µg/mL
c1coc(-c2ncnc3nc[nH]c23)c1				H37Rv		EC50	>6.25 µg/mL
Cc1ccnc(NC(=O)NS(=O)(=O)c2cc(C(N)=O)ccc2Br)n1				H37Rv		MIC	>80 µg/mL
Cc1nc(C(N)=O)c(N)n1CCN1CCN(C(=O)CCCCCCCCCCNC2N=CNc3nc[nH]c32)CC1		BACTEC		H37Rv		MIC bound	>12.5 µg/mL

Fold resistance has wild type as its base. An empty or dashed field is not shown. MIC bound comes from a single tested concentration. "inactive" is the filed call at that dose; no cut-off is given. ECn: concentration that inhibits the pathogen or its effect by n%. Percent inhibition refers to the dose given; in toxicity tests it is the harm to the cells. A number after MIC or MFC names an inhibition level or a share of isolates.